# Laboratory results from patent publication US20070122429A1, “Designed antigens to elicit neutralizing antibodies against sterically restricted antigen and method of using same” (priority 2005, published 2007).
# Molecular target: HIV-1 HXB2 Env (gp41 N-trimer region) (HIV-1 HXB2) (UniProt P04578)
# Experiment: cell-based or functional assay
substance,measurement,value
Ub-C37 (from UniProt P0CG48 1-76; P04578 625-661),"IC50, cell-cell fusion (HXB2 Env)",4.7 nM
